Source: PMC4999853, “Chloroquine Analog Interaction with C2- and Iota-Toxin in Vitro and in Living Cells” (2016)

The chains behind the UniProt entries cited, without tags or fusion partners. Residues count along the entry.
UniProt O86171, 182-721 limits assumed: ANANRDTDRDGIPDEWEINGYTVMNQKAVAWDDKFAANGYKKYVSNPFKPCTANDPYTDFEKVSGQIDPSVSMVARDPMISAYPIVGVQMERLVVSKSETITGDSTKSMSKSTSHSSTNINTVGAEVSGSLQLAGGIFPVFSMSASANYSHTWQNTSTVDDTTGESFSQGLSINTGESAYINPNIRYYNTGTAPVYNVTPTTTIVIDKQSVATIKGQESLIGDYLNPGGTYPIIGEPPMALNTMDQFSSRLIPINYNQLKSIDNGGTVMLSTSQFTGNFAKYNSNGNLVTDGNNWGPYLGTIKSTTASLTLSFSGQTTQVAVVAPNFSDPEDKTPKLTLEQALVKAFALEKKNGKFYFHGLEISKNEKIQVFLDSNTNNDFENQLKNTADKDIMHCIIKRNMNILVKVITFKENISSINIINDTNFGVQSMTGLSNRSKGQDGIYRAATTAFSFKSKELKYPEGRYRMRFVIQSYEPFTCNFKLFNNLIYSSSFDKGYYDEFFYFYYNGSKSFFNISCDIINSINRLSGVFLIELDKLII

What was measured:
[1] = tested on: Iota toxin (Iota a + Iota b) on Vero cells; assay: pH-dependent membrane translocation of Iota toxin in intact Vero cells (cell rounding); settings: Baf A1-treated Vero cells, 100 ng/mL Ia + 200 ng/mL Ib, pH 4.0 for 15 min, 1 mM compound, further 2 h at 37 °C; vs toxin without compound
[2] = tested on: C2 toxin (C2I + C2IIa) on Vero cells; assay: pH-dependent membrane translocation of C2 toxin in intact Vero cells (cell rounding); settings: Baf A1-treated Vero cells, 100 ng/mL C2I + 200 ng/mL C2IIa, pH 4.5 for 5 min, compound present during pulse and subsequent incubation (1 mM shown); vs toxin without compound
[3] = tested on: Iota b channels (binding component of Iota-toxin); assay: Titration of Iota b channel conductance in lipid bilayer membranes; settings: KS Iota b / KS C2IIa
[4] = target: Iota b channels (binding component of Iota-toxin) (Clostridium perfringens, UniProt Q46221); assay: as above; settings: for Stability constant K for block of Iota b channels: DiPhPC/n-decane membranes, pH 6, about 20 ng/mL Iota b, 20 °C, mean ± SD of at least three titrations
[5] = target: T1, C2IIa channels (binding component C2II of C2-toxin) (Clostridium botulinum, UniProt O86171); assay: Titration of C2IIa channel conductance in lipid bilayer membranes; settings: for Stability constant K for block of C2II channels: DiPhPC/n-decane membranes, pH 6, about 10 ng/mL activated C2II, 20 °C, mean ± SD of at least three titrations; for Stability constant K for block of C2II channels / Kd: 150 mM KCl, 10 mM MES-KOH; for Kd: read-out: Half saturation constant KS, C2II channels, KS = 1/K, pH 6, 20 °C
[6] = target: T1, C2IIa channels (binding component C2II of C2-toxin); settings: given for comparison, ref Bachmeyer et al. (2003) [45], cited from earlier work
[7] = read-out: Half saturation constant KS, Iota b channels, KS = 1/K, 150 mM KCl, 10 mM MES-KOH, pH 6, 20 °C

Row | Compound | Cell rounding after acidic pulse with Iota toxin in presence of compound [1] | Cell rounding after acidic pulse with C2 toxin in presence of compound [2] | Factor by which KS for Iota b is higher than KS for C2IIa [3] | Stability constant K for block of Iota b channels ([4]; 150 mM KCl, 10 mM MES-KOH) | Kd [4, 7] | Stability constant K for block of C2II channels [5] | Factor by which KS for C2IIa is smaller than that of chloroquine ([5]; KS chloroquine / KS compound, C2IIa channels) | Kd [5] | Stability constant K of binding to Iota b channels (single titration, Figures 1 and 2) ([4]; fit with Equation (2) of the titration of Figure 1, about 70 Iota b channels, 150 mM KCl, 10 mM MES, pH 6.0, 20 °C, 50 mV) | Block of Iota b channels reached in the titration ([4]; highest concentration reached 4.03 mM, limited by solubility) | Kd ([4]; read-out: Half saturation constant KS, Iota b channels (single titration, Figure 2), fit of the titration of Figure 1, r^2 = 0.997645) | Stability constant K for block of C2II channels [6] | Kd ([6]; read-out: Half saturation constant KS, C2II channels)
1 | CC(CCCN1C(=O)c2ccccc2C1=O)[n+]1ccc(N)c2ccc(Cl)cc21 (stereo not drawn) | significantly less cells were rounded | significantly less cells were rounded | about 500 | 12.5 ± 2.1 10^3 M^-1 | 80 µM | 6200 ± 40 10^3 M^-1 | 60 | 0.16 µM | – | – | – | – | –
2 | NCCCCNc1ccnc2cc(Cl)ccc12 | – | – | – | 0.39 ± 0.13 10^3 M^-1 | – | 18.5 ± 2.5 10^3 M^-1 | – | 54 µM | 348 ± 48 M⁻¹ | about 50% | 2900 µM | – | –
3 | Nc1ccnc2cc(Cl)ccc12 | – | – | – | 0.82 ± 0.21 10^3 M^-1 | 1200 µM | 1.5 ± 0.4 10^3 M^-1 | – | 700 µM | – | – | – | – | –
4 | CCN(CC)CCCC(C)Nc1ccnc2cc(Cl)ccc12 (stereo not drawn) | – | – | – | – | – | – | – | – | – | – | – | 110000 M⁻¹ | 9.1 µM
5 | CC(=O)NCCCCNc1ccnc2cc(Cl)ccc12 | – | – | – | 2.5 ± 0.4 10^3 M^-1 | 400 µM | 198 ± 15 10^3 M^-1 | – | 5 µM and 5.1 µM | – | – | – | – | –

Several values for one entry are separate records, joined by “and”; a condition that tells them apart may be missing. Equal values may be shown once. Read-outs that look alike come from different tables or passages of the source.
